Results of unrelated studies side by side (data: NIAID ChemDB).

Shared fields: tests in culture; organism: Mycobacterium avium complex

Neighbouring rows are from separate reports. A number after MIC or MFC names an inhibition level or a share of isolates. Two numbers with a dash give a range or band.

CC[C@H]1OC(=O)[C@H](C)[C@@H](O[C@H]2C[C@@](C)(OC)[C@@H](OC(C)=O)[C@H](C)O2)[C@H](C)[C@@H](O[C@@H]2O[C@H](C)C[C@H](N(C)C)[C@H]2OC(=O)NNCc2ccccn2)C(C)(O)C[C@@H](C)/C(=N\OCCCC2CCCCC2)[C@H](C)[C@@H](O)[C@]1(C)O ; strain: 20096 (clarithromycin-resistant) ; endpoint: MIC ; value: 0.78 µg/mL
COc1ccc(C(F)(F)F)cc1N(C)Cc1cnc2nc(N)nc(N)c2c1C ; strain: NJ211 ; endpoint: MIC ; value: ≤0.13 µg/mL
CC[C@H]1OC(=O)[C@H](C)[C@@H](OC2C[C@@](C)(OC)[C@@H](OC(=O)CC3CCCCC3)[C@H](C)O2)[C@H](C)[C@@H](O[C@@H]2O[C@H](C)C[C@H](N(C)C)[C@H]2O)C(C)(O)C[C@@H](C)/C(=N\OCCCOc2ccccc2)[C@H](C)[C@@H](O)[C@]1(C)O ; strain: 20039 (clarithromycin-susceptible) ; endpoint: MIC ; value: 1.56 µg/mL
CCCNC(=O)OCCn1sc2ccccc2c1=O ; strain: AN2 ; endpoint: MIC ; value: >32 µg/mL
COCc1c(CNc2cc(OC)c(OC)c(OC)c2)cnc2nc(N)nc(N)c12 ; strain: NJ168 ; endpoint: MIC ; value: >13 µg/mL
CC(C)(C)NC(=O)OCCn1sc2ccccc2c1=S ; strain: AN1 ; endpoint: MIC ; value: 2 µg/mL
CCc1nc(N)nc(N)c1-c1ccc(Cl)cc1 ; strain: DW23 ; endpoint: MIC ; value: 64 µg/mL
CC1(C)S[C@@H]2[C@H](NC(=O)[C@H](C(=O)[O-])c3ccsc3)C(=O)N2[C@H]1C(=O)[O-].[Na+].[Na+] ; strain: CIPT 140310003 (rough) ; endpoint: MIC ; value: 35 µg/mL
CCCNC(=O)OCCN=c1ssc2ccccc12 ; strain: ISS 486 ; endpoint: MIC ; value: 4 µg/mL
CC1(C)N=C(N)N=C(N)N1OCCCOc1cc(Cl)c(Cl)cc1Cl ; strain: OFOO7A ; endpoint: MIC ; value: 8 µg/mL
CN[C@@H]1[C@H](O[C@H]2[C@H](O[C@H]3[C@H](O)[C@@H](O)[C@H](N=C(N)N)[C@@H](O)[C@@H]3N=C(N)N)O[C@@H](C)[C@]2(O)C=O)O[C@@H](CO)[C@H](O)[C@H]1O ; strain: N-259 (HIV-) ; endpoint: MIC ; value: 32 µg/mL
NNC(=O)c1ccncc1 ; strain: 13022 ; endpoint: MIC ; value: 0.63–1.6 µg/mL
Cc1ccc(NCc2cnc3nc(N)nc(N)c3c2C)cc1Br ; strain: NJ168 ; endpoint: MIC ; value: ≤0.13 µg/mL
CN1CCN(CCCN=c2cc3n(-c4ccc(Cl)cc4)c4ccccc4nc-3cc2Nc2ccccc2)CC1 ; strain: 10 strains (HIV+) ; endpoint: MIC50 ; value: 1.7 µg/mL
CC1(C)N=C(N)N=C(N)N1OCCCOc1cc(Cl)c(Cl)cc1Cl ; strain: 3008 ; endpoint: MIC ; value: 1 µg/mL
CC1(C)S[C@@H]2[C@H](NC(=O)C(C(=O)O)c3ccccc3)C(=O)N2[C@H]1C(=O)O ; strain: CIPT 140310003 (smooth) ; endpoint: MIC ; value: 50 µg/mL
CCCNC(=O)OCCn1sc2ccccc2c1=S ; strain: AN1 ; endpoint: MIC ; value: 4 µg/mL
Cc1onc(-c2ccccc2Cl)c1C(=O)N[C@@H]1C(=O)N2[C@@H]1SC(C)(C)[C@@H]2C(=O)O ; strain: CIPT 140310006 ; endpoint: MIC ; value: 35 µg/mL
Cc1c(CNc2ccccc2OC(F)F)cnc2nc(N)nc(N)c12.O ; strain: NJ3404 ; endpoint: MIC ; value: ≤0.13 µg/mL
Clc1ccc(Nc2cc3nc4ccccc4n(-c4ccc(Cl)cc4)c-3cc2=NCCCN2CCCC2)cc1 ; strain: 10 strains (HIV+) ; endpoint: MIC90 ; value: 0.83 µg/mL
CCNC(=O)OCCn1sc2ccccc2c1=O ; strain: AN1 ; endpoint: MIC ; value: 16 µg/mL
CO[C@H]1/C=C/O[C@@]2(C)Oc3c(C)c(O)c4c(O)c(c5c(c4c3C2=O)NC2(CCN(CC(C)C)CC2)N=5)=NC(=O)/C(C)=C\C=C\[C@H](C)[C@H](O)[C@@H](C)[C@@H](O)[C@@H](C)[C@H](OC(C)=O)[C@@H]1C ; strain: CIPT 140310006 ; endpoint: MIC ; value: 0.05 µg/mL
CO[C@H]1/C=C/O[C@@]2(C)Oc3c(C)c(O)c4c(=O)c(c5oc6cc(N7CCN(CC(C)C)CC7)cc(=O)c6nc5c4c3=C2O)NC(=O)/C(C)=C\C=C\[C@H](C)[C@H](O)[C@@H](C)[C@@H](O)[C@@H](C)[C@H](OC(C)=O)[C@@H]1C ; strain: N-265 (HIV-) ; endpoint: MIC ; value: 0.05 µg/mL
COCc1c(CNc2cc(OC)ccc2OC)cnc2nc(N)nc(N)c12 ; strain: NJ3404 ; endpoint: MIC ; value: >13 µg/mL
CO[C@H]1/C=C/O[C@@]2(C)Oc3c(C)c(O)c4c(O)c(c5c(c4c3C2=O)NC2(CCN(CC(C)C)CC2)N=5)=NC(=O)/C(C)=C\C=C\[C@H](C)[C@H](O)[C@@H](C)[C@@H](O)[C@@H](C)[C@H](OC(C)=O)[C@@H]1C ; strain: 1408-2 ; endpoint: MBC ; value: 16 µg/mL
CC[C@H]1OC(=O)[C@H](C)[C@@H](O[C@H]2C[C@@](C)(OC)[C@@H](OC(C)=O)[C@H](C)O2)[C@H](C)[C@@H](O[C@@H]2O[C@H](C)C[C@H](N(C)C)[C@H]2O)C(C)(O)C[C@@H](C)/C(=N\OC)[C@H](C)[C@@H](O)[C@]1(C)O ; strain: 20092 (clarithromycin-resistant) ; endpoint: MIC ; value: >50 µg/mL
C[C@@H]1CN(c2c(F)c(N)c3c(=O)c(C(=O)O)cn(C4CC4)c3c2F)C[C@H](C)N1 ; strain: ATCC 13950 ; endpoint: MIC ; value: 0.5 µg/mL
CO[C@H]1/C=C/O[C@@]2(C)Oc3c(C)c(O)c4c(O)c(c5c(c4c3C2=O)NC2(CCN(CC(C)C)CC2)N=5)=NC(=O)/C(C)=C\C=C\[C@H](C)[C@H](O)[C@@H](C)[C@@H](O)[C@@H](C)[C@H](OC(C)=O)[C@@H]1C ; strain: N-945 (HIV+) ; endpoint: MIC ; value: 0.4 µg/mL
CCNC(=O)OCCN=c1ssc2ccccc12 ; strain: ISS 486 ; endpoint: MIC ; value: 4 µg/mL
Cc1cc(NCc2cnc3nc(N)nc(N)c3c2C)c(Cl)cc1F ; strain: NJ3404 ; endpoint: MIC ; value: ≤0.13 µg/mL
OCCN=c1ssc2ccccc12 ; strain: AN1 ; endpoint: MIC ; value: 2 µg/mL
C/C(=N\NC(N)=S)c1cccnc1 ; strain: 101 ; endpoint: MIC ; value: 0.5 µg/mL
CO[C@H]1/C=C/O[C@@]2(C)Oc3c(C)c(O)c4c(O)c(c5c(c4c3C2=O)NC2(CCN(CC(C)C)CC2)N=5)=NC(=O)/C(C)=C\C=C\[C@H](C)[C@H](O)[C@@H](C)[C@@H](O)[C@@H](C)[C@H](OC(C)=O)[C@@H]1C ; strain: 101 ; endpoint: MIC ; value: 0.5 µg/mL
CCCCCCO/N=C1\[C@H](C)CC(C)(O)[C@H](O[C@@H]2O[C@H](C)C[C@H](N(C)C)[C@H]2O)[C@@H](C)[C@H](OC2C[C@@](C)(OC)[C@@H](O)[C@H](C)O2)[C@@H](C)C(=O)O[C@H](CC)[C@@](C)(O)[C@H](O)[C@H]1C ; strain: 20092 (clarithromycin-resistant) ; endpoint: MIC ; value: 25 µg/mL
CC(C)(C)NC(=O)OCCN=c1ssc2ccccc12 ; strain: AN3 ; endpoint: MIC ; value: 2 µg/mL